Like-named read-outs stand apart in the source and are kept apart here.
Columns and labels:
[1] = target: N36 (gp41 NHR-derived target mimic peptide) (Human immunodeficiency virus type 1 group M subtype B, UniProt P04578); assay: CD spectroscopy of inhibitor complexed with N36; format: binding, HIV-1; details: thermal denaturation of complex at 222 nm, 20-98 C, 2 C/min, each peptide 10 μM in PBS; repeated two times, representative data
[2] = system: HIV-1HXB2 Env-mediated cell-cell fusion; format: cell-based; details: TZM-bl target, HL2/3 effector, 6 h coculture at 37 C, luciferase, triplicate, repeated three times, mean ± SD, read-out: IC50, inhibition of HIV-1HXB2 Env-mediated cell-cell fusion

CC[C@H](C)[C@H](NC(=O)[C@H](CCCCN)NC(=O)[C@H](CCCCN)NC(=O)[C@H](CC(=O)O)NC(=O)[C@H](Cc1c[nH]c2ccccc12)NC(=O)[C@H](CCC(=O)O)NC(=O)[C@H](CCC(=O)O)NC(=O)[C@H](Cc1c[nH]c2ccccc12)NC(=O)[C@@H](NC(=O)[C@H](CCSC)NC(C)=O)[C@@H](C)O)C(=O)N[C@@H](CCC(=O)O)C(=O)N[C@@H](CCC(=O)O)C(=O)N[C@@H](Cc1ccc(O)cc1)C(=O)N[C@H](C(=O)N[C@@H](CCCCN)C(=O)N[C@@H](CCCCN)C(=O)N[C@H](C(=O)N[C@@H](CCC(=O)O)C(=O)N[C@@H](CCC(=O)O)C(=O)N[C@@H](CC(C)C)C(N)=O)[C@@H](C)CC)[C@@H](C)O [MT-SC18EK]
CD data (with N36) Tm (°C) [1]: 51.6 °C | IC50 [2]: > 2000 nM

CC[C@H](C)[C@H](NC(=O)[C@H](CC(C)C)NC(=O)[C@H](CCC(=O)O)NC(=O)[C@H](CCC(=O)O)NC(=O)[C@@H](NC(=O)[C@H](CCCCN)NC(=O)[C@H](CCCCN)NC(=O)[C@@H](NC(=O)[C@H](Cc1ccc(O)cc1)NC(=O)[C@H](CCC(=O)O)NC(=O)[C@H](CCC(=O)O)NC(=O)[C@@H](NC(=O)[C@H](CCCCN)NC(=O)[C@H](CCCCN)NC(=O)[C@H](CC(=O)O)NC(=O)[C@H](Cc1c[nH]c2ccccc12)NC(=O)[C@H](CCC(=O)O)NC(=O)[C@H](CCC(=O)O)NC(=O)[C@H](Cc1c[nH]c2ccccc12)NC(=O)[C@@H](NC(=O)[C@H](CCSC)NC(C)=O)[C@@H](C)O)[C@@H](C)CC)[C@@H](C)O)[C@@H](C)CC)C(N)=O [MT-SC19EK]
CD data (with N36) Tm (°C) [1]: 67.7 °C | IC50 ([2]; SD): 4.9 ± 1.5 nM

CC[C@H](C)[C@H](NC(=O)[C@H](CC(C)C)NC(=O)[C@H](CCC(=O)O)NC(=O)[C@H](CCC(=O)O)NC(=O)[C@@H](NC(=O)[C@H](CCCCN)NC(=O)[C@H](CCCCN)NC(=O)[C@@H](NC(=O)[C@H](Cc1ccc(O)cc1)NC(=O)[C@H](CCC(=O)O)NC(=O)[C@H](CCC(=O)O)NC(=O)[C@@H](NC(=O)[C@H](CCCCN)NC(=O)[C@H](CCCCN)NC(=O)[C@H](CC(=O)O)NC(=O)[C@H](Cc1c[nH]c2ccccc12)NC(=O)[C@H](CCC(=O)O)NC(=O)[C@H](CCC(=O)O)NC(=O)[C@H](Cc1c[nH]c2ccccc12)NC(=O)[C@@H](NC(=O)[C@H](CCSC)NC(C)=O)[C@@H](C)O)[C@@H](C)CC)[C@@H](C)O)[C@@H](C)CC)C(=O)N[C@@H](CCCCN)C(N)=O [MT-SC20EK]
CD data (with N36) Tm (°C) [1]: 70.4 °C | IC50 ([2]; SD): 3.3 ± 1.4 nM

CC[C@H](C)[C@H](NC(=O)[C@H](CC(C)C)NC(=O)[C@H](CCC(=O)O)NC(=O)[C@H](CCC(=O)O)NC(=O)[C@@H](NC(=O)[C@H](CCCCN)NC(=O)[C@H](CCCCN)NC(=O)[C@@H](NC(=O)[C@H](Cc1ccc(O)cc1)NC(=O)[C@H](CCC(=O)O)NC(=O)[C@H](CCC(=O)O)NC(=O)[C@@H](NC(=O)[C@H](CCCCN)NC(=O)[C@H](CCCCN)NC(=O)[C@H](CC(=O)O)NC(=O)[C@H](Cc1c[nH]c2ccccc12)NC(=O)[C@H](CCC(=O)O)NC(=O)[C@H](CCC(=O)O)NC(=O)[C@H](Cc1c[nH]c2ccccc12)NC(=O)[C@@H](NC(=O)[C@H](CCSC)NC(C)=O)[C@@H](C)O)[C@@H](C)CC)[C@@H](C)O)[C@@H](C)CC)C(=O)N[C@@H](CCCCN)C(=O)N[C@@H](CCCCN)C(N)=O [MT-SC21EK]
CD data (with N36) Tm (°C) [1]: 69.6 °C | IC50 ([2]; SD): 3.1 ± 1.2 nM

CC[C@H](C)[C@H](NC(=O)[C@H](CC(C)C)NC(=O)[C@H](CCC(=O)O)NC(=O)[C@H](CCC(=O)O)NC(=O)[C@@H](NC(=O)[C@H](CCCCN)NC(=O)[C@H](CCCCN)NC(=O)[C@@H](NC(=O)[C@H](Cc1ccc(O)cc1)NC(=O)[C@H](CCC(=O)O)NC(=O)[C@H](CCC(=O)O)NC(=O)[C@@H](NC(=O)[C@H](CCCCN)NC(=O)[C@H](CCCCN)NC(=O)[C@H](CC(=O)O)NC(=O)[C@H](Cc1c[nH]c2ccccc12)NC(=O)[C@H](CCC(=O)O)NC(=O)[C@H](CCC(=O)O)NC(=O)[C@H](Cc1c[nH]c2ccccc12)NC(=O)[C@@H](NC(=O)[C@H](CCSC)NC(C)=O)[C@@H](C)O)[C@@H](C)CC)[C@@H](C)O)[C@@H](C)CC)C(=O)N[C@@H](CCCCN)C(=O)N[C@@H](CCCCN)C(=O)N[C@@H](CO)C(N)=O [MT-SC22EK]
CD data (with N36) Tm (°C) [1]: 71.1 °C | IC50 ([2]; SD): 2.2 ± 0.9 nM

CC[C@H](C)[C@H](NC(=O)[C@H](CC(C)C)NC(=O)[C@H](CCC(=O)O)NC(=O)[C@H](CCC(=O)O)NC(=O)[C@@H](NC(=O)[C@H](CCCCN)NC(=O)[C@H](CCCCN)NC(=O)[C@@H](NC(=O)[C@H](Cc1ccc(O)cc1)NC(=O)[C@H](CCC(=O)O)NC(=O)[C@H](CCC(=O)O)NC(=O)[C@@H](NC(=O)[C@H](CCCCN)NC(=O)[C@H](CCCCN)NC(=O)[C@H](CC(=O)O)NC(=O)[C@H](Cc1c[nH]c2ccccc12)NC(=O)[C@H](CCC(=O)O)NC(=O)[C@H](CCC(=O)O)NC(=O)[C@H](Cc1c[nH]c2ccccc12)NC(=O)[C@@H](NC(=O)[C@H](CCSC)NC(C)=O)[C@@H](C)O)[C@@H](C)CC)[C@@H](C)O)[C@@H](C)CC)C(=O)N[C@@H](CCCCN)C(=O)N[C@@H](CCCCN)C(=O)N[C@@H](CO)C(=O)N[C@@H](CCC(=O)O)C(N)=O [MT-SC23EK]
CD data (with N36) Tm (°C) [1]: 70.5 °C | IC50 ([2]; SD): 1.9 ± 0.7 nM

CC[C@H](C)[C@H](NC(=O)[C@H](CC(C)C)NC(=O)[C@H](CCC(=O)O)NC(=O)[C@H](CCC(=O)O)NC(=O)[C@@H](NC(=O)[C@H](CCCCN)NC(=O)[C@H](CCCCN)NC(=O)[C@@H](NC(=O)[C@H](Cc1ccc(O)cc1)NC(=O)[C@H](CCC(=O)O)NC(=O)[C@H](CCC(=O)O)NC(=O)[C@@H](NC(=O)[C@H](CCCCN)NC(=O)[C@H](CCCCN)NC(=O)[C@H](CC(=O)O)NC(=O)[C@H](Cc1c[nH]c2ccccc12)NC(=O)[C@H](CCC(=O)O)NC(=O)[C@H](CCC(=O)O)NC(=O)[C@H](Cc1c[nH]c2ccccc12)NC(=O)[C@@H](NC(=O)[C@H](CCSC)NC(C)=O)[C@@H](C)O)[C@@H](C)CC)[C@@H](C)O)[C@@H](C)CC)C(=O)N[C@@H](CCCCN)C(=O)N[C@@H](CCCCN)C(=O)N[C@@H](CO)C(=O)N[C@@H](CCC(=O)O)C(=O)N[C@@H](CCC(=O)O)C(N)=O [MT-SC24EK]
CD data (with N36) Tm (°C) [1]: 69.5 °C | IC50 ([2]; SD): 2.3 ± 0.5 nM

CC[C@H](C)[C@H](NC(=O)[C@H](CC(C)C)NC(=O)[C@H](CCC(=O)O)NC(=O)[C@H](CCC(=O)O)NC(=O)[C@@H](NC(=O)[C@H](CCCCN)NC(=O)[C@H](CCCCN)NC(=O)[C@@H](NC(=O)[C@H](Cc1ccc(O)cc1)NC(=O)[C@H](CCC(=O)O)NC(=O)[C@H](CCC(=O)O)NC(=O)[C@@H](NC(=O)[C@H](CCCCN)NC(=O)[C@H](CCCCN)NC(=O)[C@H](CC(=O)O)NC(=O)[C@H](Cc1c[nH]c2ccccc12)NC(=O)[C@H](CCC(=O)O)NC(=O)[C@H](CCC(=O)O)NC(=O)[C@H](Cc1c[nH]c2ccccc12)NC(=O)[C@@H](NC(=O)[C@H](CCSC)NC(C)=O)[C@@H](C)O)[C@@H](C)CC)[C@@H](C)O)[C@@H](C)CC)C(=O)N[C@@H](CCCCN)C(=O)N[C@@H](CCCCN)C(=O)N[C@@H](CO)C(=O)N[C@@H](CCC(=O)O)C(=O)N[C@@H](CCC(=O)O)C(=O)N[C@@H](CCC(N)=O)C(N)=O [MT-SC25EK]
CD data (with N36) Tm (°C) [1]: 69.9 °C | IC50 ([2]; SD): 2 ± 0.9 nM

CC[C@H](C)[C@H](NC(=O)[C@H](CC(C)C)NC(=O)[C@H](CCC(=O)O)NC(=O)[C@H](CCC(=O)O)NC(=O)[C@@H](NC(=O)[C@H](CCCCN)NC(=O)[C@H](CCCCN)NC(=O)[C@@H](NC(=O)[C@H](Cc1ccc(O)cc1)NC(=O)[C@H](CCC(=O)O)NC(=O)[C@H](CCC(=O)O)NC(=O)[C@@H](NC(=O)[C@H](CCCCN)NC(=O)[C@H](CCCCN)NC(=O)[C@H](CC(=O)O)NC(=O)[C@H](Cc1c[nH]c2ccccc12)NC(=O)[C@H](CCC(=O)O)NC(=O)[C@H](CCC(=O)O)NC(=O)[C@H](Cc1c[nH]c2ccccc12)NC(=O)[C@@H](NC(=O)[C@H](CCSC)NC(C)=O)[C@@H](C)O)[C@@H](C)CC)[C@@H](C)O)[C@@H](C)CC)C(=O)N[C@@H](CCCCN)C(=O)N[C@@H](CCCCN)C(=O)N[C@@H](CO)C(=O)N[C@@H](CCC(=O)O)C(=O)N[C@@H](CCC(=O)O)C(=O)N[C@@H](CCC(N)=O)C(=O)N[C@@H](CCC(N)=O)C(N)=O [MT-SC26EK]
CD data (with N36) Tm (°C) [1]: 70.2 °C | IC50 ([2]; SD): 1.1 ± 0.2 nM

CC[C@H](C)[C@H](NC(=O)[C@H](CC(C)C)NC(=O)[C@H](CCC(=O)O)NC(=O)[C@H](CCC(=O)O)NC(=O)[C@@H](NC(=O)[C@H](CCCCN)NC(=O)[C@H](CCCCN)NC(=O)[C@@H](NC(=O)[C@H](Cc1ccc(O)cc1)NC(=O)[C@H](CCC(=O)O)NC(=O)[C@H](CCC(=O)O)NC(=O)[C@@H](NC(=O)[C@H](CCCCN)NC(=O)[C@H](CCCCN)NC(=O)[C@H](CC(=O)O)NC(=O)[C@H](Cc1c[nH]c2ccccc12)NC(=O)[C@H](CCC(=O)O)NC(=O)[C@H](CCC(=O)O)NC(=O)[C@H](Cc1c[nH]c2ccccc12)NC(=O)[C@@H](NC(=O)[C@H](CCSC)NC(C)=O)[C@@H](C)O)[C@@H](C)CC)[C@@H](C)O)[C@@H](C)CC)C(=O)N[C@@H](CCCCN)C(=O)N[C@@H](CCCCN)C(=O)N[C@@H](CO)C(=O)N[C@@H](CCC(=O)O)C(=O)N[C@@H](CCC(=O)O)C(=O)N[C@@H](CCC(N)=O)C(=O)N[C@@H](CCC(N)=O)C(=O)N[C@@H](CCCCN)C(N)=O [MT-SC27EK]
CD data (with N36) Tm (°C) [1]: 70 °C | IC50 ([2]; SD): 1.4 ± 0.6 nM

CC[C@H](C)[C@H](NC(=O)[C@H](CCCCN)NC(=O)[C@H](CCCCN)NC(=O)[C@H](CC(=O)O)NC(=O)[C@H](Cc1c[nH]c2ccccc12)NC(=O)[C@H](CCC(=O)O)NC(=O)[C@H](CCC(=O)O)NC(=O)[C@H](Cc1c[nH]c2ccccc12)NC(C)=O)C(=O)N[C@@H](CCC(=O)O)C(=O)N[C@@H](CCC(=O)O)C(=O)N[C@@H](Cc1ccc(O)cc1)C(=O)N[C@H](C(=O)N[C@@H](CCCCN)C(=O)N[C@@H](CCCCN)C(=O)N[C@H](C(=O)N[C@@H](CCC(=O)O)C(=O)N[C@@H](CCC(=O)O)C(=O)N[C@@H](CC(C)C)C(N)=O)[C@@H](C)CC)[C@@H](C)O [SC18EK]
IC50 [2]: > 2000 nM
